Compound potency records, mixed from different reports. Data source: NIAID ChemDB in PubChem.

Shared fields: whole-cell or culture tests; organism: Aspergillus flavus

MIC50, MIC90 and the like: level of inhibition, or share of isolates inhibited. Lines come from different laboratories, so protocols vary. a–b is a range or a potency band. An empty or dashed field is not shown.

SMILES,read by,measure,strain,value
CC1=C(Nc2ccccc2)C(=O)c2ccccc2C1=O,broth dilution,MIC100,MTCC 277,125 µg/mL
C[C@H]1[C@H](O)[C@@H](C)/C=C/C=C/C=C/C=C/C=C/C=C/C=C/[C@H](O[C@@H]2O[C@H](C)[C@@H](O)[C@H](N)[C@@H]2O)C[C@@H]2O[C@](O)(C[C@@H](O)C[C@@H](O)CC[C@H](O)[C@@H](O)C[C@@H](O)CC(=O)O[C@H]1C)C[C@H](O)[C@H]2C(=O)O,broth dilution,MIC,VPCI 190/96,1.95 µg/mL
C[C@@H]1[C@H](O)[C@@H](C)/C=C/C=C/CC/C=C/C=C/C=C/C=C/C(O[C@H]2O[C@H](C)[C@@H](O)[C@H](N)[C@@H]2O)CC2O[C@](O)(CC(O)C(O)CCC(O)CC(O)CC(O)CC(=O)O[C@H]1C)CC(O)C2C(=O)O,,MIC,,8 µM
OC(Cn1cncn1)(Cn1cncn1)c1ccc(F)cc1F,broth dilution,MIC,,25 µg/mL
CC(=O)N/N=C/c1ccc(-n2ccnc2)cc1,broth dilution,MIC50,,>1100 µM
C[C@H]1[C@H](O)[C@@H](C)/C=C/C=C/C=C/C=C/C=C/C=C/C=C/[C@H](O[C@@H]2O[C@H](C)[C@@H](O)[C@H](N)[C@@H]2O)C[C@@H]2O[C@](O)(C[C@@H](O)C[C@@H](O)CC[C@H](O)[C@@H](O)C[C@@H](O)CC(=O)O[C@H]1C)C[C@H](O)[C@H]2C(=O)O,turbidity,MIC50,,3.1 µg/mL
C[C@@H](c1nc(-c2ccc(C#N)cc2)cs1)[C@](O)(Cn1cncn1)c1cc(F)ccc1F,,MIC50,,0.5–2 µg/mL
COc1cc2oc(=O)ccc2cc1CC(O)C(C)(C)O,,MIC,,15.6 µg/mL
O=C/C=C/c1ccccc1,broth dilution,MFC,NRRL 501,160 µg/mL
COc1ccc(Cn2nc(C3CC3)cc2NC(=O)c2cc([N+](=O)[O-])cc([N+](=O)[O-])c2)cc1,,MIC,,42 µg/mL
C[C@H]1[C@H](O)[C@@H](C)/C=C/C=C/C=C/C=C/C=C/C=C/C=C/[C@H](O[C@@H]2O[C@H](C)[C@@H](O)[C@H](N)[C@@H]2O)C[C@@H]2O[C@](O)(C[C@@H](O)C[C@@H](O)CC[C@H](O)[C@@H](O)C[C@@H](O)CC(=O)O[C@H]1C)C[C@H](O)[C@H]2C(=O)O,,MIC90,,1–4 µg/mL
CNC1=CC(=O)c2ccccc2C1=O,broth dilution,MIC100,MTCC 277,250 µg/mL
CCc1ccccc1O,agar,MIC100,,207 µg/mL
C[C@@H]1[C@H](O)[C@@H](C)/C=C/C=C/CC/C=C/C=C/C=C/C=C/[C@H](O[C@@H]2O[C@H](C)[C@@H](O)[C@H](N)[C@@H]2O)C[C@@H]2O[C@](O)(C[C@@H](O)[C@H](O)CC[C@@H](O)C[C@@H](O)C[C@@H](O)CC(=O)O[C@H]1C)C[C@H](O)[C@H]2C(=O)O,,MIC,,0.75 µg/mL
CCC(C)CC(C)CCCCCCCCC(=O)N[C@H]1C[C@@H](O)[C@H](NCCN)NC(=O)[C@@H]2[C@@H](O)CCN2C(=O)[C@H]([C@H](O)CCN)NC(=O)[C@H]([C@H](O)[C@@H](O)c2ccc(O)cc2)NC(=O)[C@@H]2C[C@@H](O)CN2C(=O)[C@H]([C@@H](C)O)NC1=O,,MIC90,,0.03–0.25 µg/mL
CN(C/C=C/C#CC(C)(C)C)Cc1cccc2ccccc12,broth dilution,MIC100,ATCC 9170,0.78 µg/mL
Clc1ccc([Se][Se]c2ccc(Cl)cc2)cc1,broth dilution,MFC,,>64 µg/mL
COc1cccc(C=O)c1O,agar,MIC,NRRL3357,1000 µM
CC1(C)c2nn[se]c2C(c2ccc(Cl)cc2)NC1c1ccc(Cl)cc1,agar diffusion,MIC,,25 µg/mL
O=C1C(=O)c2ccccc2-c2ccccc21,visual reading,MIC,,40 µg/mL
COc1ccc(Cn2nc(C3CC3)cc2NC(=O)c2ccc(Cl)cc2)cc1,,MIC,,54 µg/mL
C[C@H]1[C@H](O)[C@@H](C)/C=C/C=C/C=C/C=C/C=C/C=C/C=C/[C@H](O[C@@H]2O[C@H](C)[C@@H](O)[C@H](N)[C@@H]2O)C[C@@H]2O[C@](O)(C[C@@H](O)C[C@@H](O)CC[C@H](O)[C@@H](O)C[C@@H](O)CC(=O)O[C@H]1C)C[C@H](O)[C@H]2C(=O)O,broth dilution,MIC,,>17.4 µM
O=C/C=C/c1ccccc1,broth dilution,MIC,NRRL 501,80 µg/mL
COc1cc(O)c2c(=O)c(OC)c(-c3ccc(OC4O[C@H](CO)[C@@H](O)[C@H](O)[C@H]4O)cc3)oc2c1,,MIC,,320 µg/mL
CN(C/C=C/C#CC(C)(C)C)Cc1cccc2ccccc12,broth dilution / agar,MIC100,,200 µg/mL
[Al]#[P],agar,MFC,,>5 µg/mL
COc1ccc(Cn2nc(C3CC3)cc2NC(=O)c2cccc(OC)c2)cc1,,MIC,,50 µg/mL
CC(O)CCCNc1ccc2ncccc2c1,turbidity,MIC50,,62.5 µg/mL
CC[C@@H]([C@H](C)O)n1ncn(-c2ccc(N3CCN(c4ccc(OC[C@@H]5CO[C@@](Cn6cncn6)(c6ccc(F)cc6F)C5)cc4)CC3)cc2)c1=O,,MIC90,,0.5 µg/mL
COc1ccc(O)c(C=O)c1,agar,MIC,NRRL3357,500 µM
CC[C@@H]([C@H](C)O)n1ncn(-c2ccc(N3CCN(c4ccc(OC[C@@H]5CO[C@@](Cn6cncn6)(c6ccc(F)cc6F)C5)cc4)CC3)cc2)c1=O,,MIC50,,>32 µg/mL
COc1ccc(Cn2nc(C3CC3)cc2NC(=O)c2cccc(C(C)(C)C)c2)cc1,,MIC,,41 µg/mL
OC(Cn1cncn1)(Cn1cncn1)c1ccc(F)cc1F,broth dilution,MIC100,CCAM 080001,2.5 µg/mL
CC(C)=CCOc1ccc2c(c1C)C(=O)c1ccccc1C2=O,broth dilution,MIC,Standard strain,62.5 µg/mL
CCC(C)n1ncn(-c2ccc(N3CCN(c4ccc(OC[C@H]5CO[C@](Cn6cncn6)(c6ccc(Cl)cc6Cl)O5)cc4)CC3)cc2)c1=O,agar diffusion,MIC,,8 µg/mL
C/C(=N\NC(=S)Nc1ccccc1)c1ccc(-n2ccnc2)cc1,broth dilution,MIC50,,>745 µM
COc1ccc(/C=C2\SC(N(C)C)=NC2=O)cc1,broth dilution,MIC100,ATCC 9170,>250 µg/mL
O=C(N/N=C\n1ccnc1)c1ccccc1,broth dilution,MIC50,,>1167 µM
C[C@H]1[C@H](O)[C@@H](C)/C=C/C=C/C=C/C=C/C=C/C=C/C=C/[C@H](O[C@@H]2O[C@H](C)[C@@H](O)[C@H](N)[C@@H]2O)C[C@@H]2O[C@](O)(C[C@@H](O)C[C@@H](O)CC[C@H](O)[C@@H](O)C[C@@H](O)CC(=O)O[C@H]1C)C[C@H](O)[C@H]2C(=O)O,broth dilution,MIC100,ATCC 9170,0.5 µg/mL
Cc1ccc(NC(=O)CN(C)CC(O)Cn2c(=O)c3ccccc3n(C)c2=O)cc1,agar diffusion,MIC,,16 µg/mL

Again, the opening 4 rows:

SMILES	read by	measure	strain	value
CC1=C(Nc2ccccc2)C(=O)c2ccccc2C1=O	broth dilution	MIC100	MTCC 277	125 µg/mL
C[C@H]1[C@H](O)[C@@H](C)/C=C/C=C/C=C/C=C/C=C/C=C/C=C/[C@H](O[C@@H]2O[C@H](C)[C@@H](O)[C@H](N)[C@@H]2O)C[C@@H]2O[C@](O)(C[C@@H](O)C[C@@H](O)CC[C@H](O)[C@@H](O)C[C@@H](O)CC(=O)O[C@H]1C)C[C@H](O)[C@H]2C(=O)O	broth dilution	MIC	VPCI 190/96	1.95 µg/mL
C[C@@H]1[C@H](O)[C@@H](C)/C=C/C=C/CC/C=C/C=C/C=C/C=C/C(O[C@H]2O[C@H](C)[C@@H](O)[C@H](N)[C@@H]2O)CC2O[C@](O)(CC(O)C(O)CCC(O)CC(O)CC(O)CC(=O)O[C@H]1C)CC(O)C2C(=O)O		MIC		8 µM
OC(Cn1cncn1)(Cn1cncn1)c1ccc(F)cc1F	broth dilution	MIC		25 µg/mL